Experimental findings from the supplement of paper PMC3578754 are described below.

Fold change is the IC50 on the isolate divided by the IC50 on a reference virus; 1 = unchanged, higher = more resistant. Changes are given against the subtype B consensus. No active / inactive call. The values were gathered from many studies (numbered anew) with different assays, which the source does not name. Most viruses are clinical isolates; some are laboratory strains or clones with known resistance changes. Isolates with mixed residues are left out; stretches that were not sequenced show no change. Round top values that many isolates share are read here as limits; other very high values and 0.1 may be limits too.

What all share (test): fold change of IC50 against reference virus; higher = more resistant
Compound in test [1]: CC(C)Nc1cccnc1N1CCN(C(=O)c2cc3cc(NS(C)(=O)=O)ccc3[nH]2)CC1 [delavirdine]
As to the method: (§1)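 Cell-culture drug susceptibility tests of virus bearing the reverse transcriptase of each isolate, gathered from many studies.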

Compound in test [2]: O=C1Nc2ccc(Cl)cc2[C@@](C#CC2CC2)(C(F)(F)F)O1 [efavirenz]
As to the method: as §1

Compound in test [3]: Cc1cn([C@H]2C=C[C@@H](CO)O2)c(=O)[nH]c1=O [stavudine]
On the procedure: as §1

Compound in test [4]: Cc1cn([C@H]2C[C@H](N=[N+]=[N-])[C@@H](CO)O2)c(=O)[nH]c1=O [zidovudine]
On the procedure: as §1

Compound in test [5]: Nc1ccn([C@H]2CC[C@@H](CO)O2)c(=O)n1 [zalcitabine]
On the procedure: as §1

Compound in test [6]: Nc1nc(NC2CC2)c2ncn([C@H]3C=C[C@@H](CO)C3)c2n1 [abacavir]
As to the method: as §1

Compound in test [7]: Cc1ccnc2c1NC(=O)c1cccnc1N2C1CC1 [nevirapine]
As to the method: as §1

Compound in test [8]: O=c1[nH]cnc2c1ncn2[C@H]1CC[C@@H](CO)O1 [didanosine]
On the procedure:
as §1

Consider “HIV-1 isolate 609 (reverse transcriptase changes: K102Q K122E D177E I178M M184V V245E A272P K277R, study 112)”, for which the “fold change of IC50 against reference virus” value (from here on “fold change of IC50”) stood at 1 in test [1]; 1 in test [2]; 1 in test [3]; 0.6 in test [4]; 2.2 in test [5]; 4.6 in test [6]. For the same test system, the “fold change of IC50” value in test [7] worked out at 1.1; in test [8], 1.6.

For “HIV-1 isolate 454 (reverse transcriptase changes: M41L D67N K70R K102Q S162C T215Y K219Q K277R, study 110)”, the “fold change of IC50” value was 0.5 in test [1]; 0.4 in test [2]; 1.9 in test [3]; 54.6 in test [4]; 0.8 in test [5]; 2.8 in test [6]. For the same test system, the “fold change of IC50” value is 0.5 in test [7] and 0.9 in test [8].

For “HIV-1 isolate 120 (reverse transcriptase changes: V60I I142V M184V Q207H R211K, study 28)”, the “fold change of IC50” value was determined as 1.1 in test [1]; 0.8 in test [2]; 0.9 in test [3]; 0.6 in test [4]; 1.9 in test [5]; 4 in test [6]. In addition, the “fold change of IC50” value came to 0.8 in test [7] and 1.4 in test [8].

“HIV-1 isolate 1231 (reverse transcriptase changes: P4S V35I E40F M41L K43E D67E S68G K70T V75M K103N V118I K122V A158T K166R D177E T200A Q207E L210W R211K T215Y, study 40)”: the “fold change of IC50” value in test [1] is 77; in test [2], 23; in test [3], 24; in test [4] it was 79; in test [5], 4; in test [6] it was 9. Besides, the “fold change of IC50” value in test [7] turned out to be 159; in test [8], 7.

As to “HIV-1 isolate 999 (reverse transcriptase changes: K20R T39A M41L E44D D67N V118I K122E I135T D177E M184V H208Y L210W R211N T215Y K219N L283I R284K I293V E297K A304G, study 112)”, the “fold change of IC50” value in test [1] stood at 0.7; in test [2], 0.5; in test [3], 3.9; in test [4], 101; in test [5], 4; in test [6] it was 9.9. Further, the “fold change of IC50” value is 0.6 in test [7] and 2.1 in test [8].

With “HIV-1 isolate 523 (reverse transcriptase changes: A98S I135T T200A R211K V245M E248D K277R I293V E297A K311R D324G I329L A376S K390R, study 54)”, the “fold change of IC50” value in test [1] is 3.8; in test [2], 1.8; in test [3] it was 1.2; in test [4], 1.7; in test [5], 1.1; in test [6] it was 0.8. Further, the “fold change of IC50” value is 3.5 in test [7] and 1.1 in test [8].

Take “HIV-1 isolate 1382 (reverse transcriptase changes: V118I D123E I135T R211K F214L A272P K281R T286P I293V E297K, study 15)”: the “fold change of IC50” value in test [1] stood at 0.8; in test [2] it was 0.7; in test [3], 0.9; in test [4] it was 1; in test [5], 0.8; in test [6], 1. The “fold change of IC50” value in test [7] is 0.9; in test [8], 1.1.

On to “HIV-1 isolate 450 (reverse transcriptase changes: T39A M41L E44D D67N T69D R83K K103N V118I K122E I135T E169D M184V T200E E203K Q207E H208Y L210W R211K T215Y A272P V276T, study 109)”, for which the “fold change of IC50” value came out at 6.8 in test [1]; 13 in test [2]; 4.6 in test [3]; 181 in test [4]; 2.9 in test [5]; 9.5 in test [6]. In addition, the “fold change of IC50” value came out at 44 in test [7] and 2.1 in test [8].

For the test system “HIV-1 isolate 1116 (reverse transcriptase changes: I135T G196E V245E A272P K277R I293V P294Q K311R G335E R356K M357R V365I T369A K374R T386I K390R A400T, study 54)”, the “fold change of IC50” value in test [1] turned out to be 3.3; in test [2], 1.8; in test [3], 1.2; in test [4] it was 1; in test [5], 0.5; in test [6], 0.8. Also, the “fold change of IC50” value in test [7] was 2.4; in test [8], 1.2.

On to “HIV-1 isolate 441 (reverse transcriptase changes: K70R I135T M184V R211K F214L, study 28)”, for which the “fold change of IC50” value was 0.4 in test [1]; 0.4 in test [2]; 0.7 in test [3]; 0.5 in test [4]; 2.5 in test [5]; 4.3 in test [6]. Also, the “fold change of IC50” value in test [7] was determined as 0.4; in test [8] it was 1.4.

Take “HIV-1 isolate 1190 (reverse transcriptase changes: D67N K102R V106A D123E K166R V179I M184V T200A I202V Q207E F227L, study 40)”: the “fold change of IC50” value in test [1] is 4; in test [2], 14; in test [3], 2; in test [4] it was 1; in test [5] it was 7; in test [6], 10. For the same test system, the “fold change of IC50” value came out at 123 in test [7] and 3 in test [8].

In the case of “HIV-1 isolate 613 (reverse transcriptase changes: T27S I31V K64H D67N T69N K70R K122E M184V I195L D218E K219Q L228H V245M E248V K249Q A288T I293V, study 112)”, the “fold change of IC50” value in test [1] stood at 0.7; in test [2], 0.4; in test [3] it was 2.3; in test [4], 7.9; in test [5] it was 2.3; in test [6] it was 7.7. Also, the “fold change of IC50” value in test [7] amounted to 0.3; in test [8], 1.8.

With “HIV-1 isolate 1265 (reverse transcriptase changes: V35I R83K K122E I135V S162C A272P Q278N V292I G333E Q334H M357T K366R K390R A400T, study 54)”, the “fold change of IC50” value in test [1] amounted to 0.4; in test [2] it was 0.3; in test [3] it was 0.8; in test [4], 0.6; in test [5], 0.6; in test [6], 0.7. Also, the entries for the “fold change of IC50” value in test [7] and in test [8] were 0.2 and 0.7, respectively.

For the test system “HIV-1 isolate 340 (reverse transcriptase changes: R83K K173R G196E R211S P294Q E297K K311R, study 40)”, the “fold change of IC50” value in test [1] was determined as 1; in test [2] it was 1; in test [3], 2; in test [4], 1; in test [5] it was 1; in test [6], 1. Moreover, the “fold change of IC50” value in test [7] and in test [8] was 2 in each case.

Consider “HIV-1 isolate 1428 (reverse transcriptase changes: V35T V60I I135V I142V M184V R211K V245E A272P K277R L283I I293V E297A, study 40)”, for which the “fold change of IC50” value in test [1] was 1; in test [2], 1; in test [3], 1; in test [4], 1; in test [5], 1; in test [6] it was 2. Also, the “fold change of IC50” value in test [7] and in test [8] was 1 each time.
